Molecular target: BG505
Experiment: SPR

## PGT128
  Kd: 8 nM

— patent US20190085033A1
